Measured values reported in PubChem BioAssay AID602233 (National Center for Advancing Translational Sciences (NCATS), 2012).
Only a part is listed here, and it is no random draw. Activity calls are given as the source filed them. Calls come from the whole dose curve; as a rule, active = well fitted inhibition curve with a large enough effect; inconclusive = small, poorly fitted or top-dose-only effect; inactive = no such curve, though single readings can be large or run the other way.

Molecular target: Phosphoglycerate kinase, glycosomal (Trypanosoma brucei brucei) (UniProt P07378)
Assay: qHTS Assay to Find Inhibitors of Phosphoglycerate Kinase; note: nearly all actives have a fitted effect of over 60% in size
Settings: PGK/GAPDH coupled, Kinase-Glo luminescence, 60 min; at 57.5 µM (top of the series)
Text: Several species of the Trypanosomatidae family of parasitic protozoans cause a spectrum of diseases throughout the tropical and subtropical world. Sleeping sickness, caused by two subspecies of Trypanosoma brucei, is endemic to areas of sub-Saharan Africa, while Chagas disease, a manifestation of Trypanosoma cruzi infection, is prevalent throughout Central and South America. In addition, many species of Leishmania are responsible for a range of cutaneous and visceral diseases, causing ulcers, destructive lesions and kalaazar, a lethal infection of the viscera. Collectively, these organisms infect 30 million people worldwide (~500 million live in endemic areas), and account for ~130,000 deaths annually. Given their debilitating and prevalent nature, trypanosomatid parasites impose a heavy medical, economic and social burden on entire populations, primarily in the developing world. […]
3ul of substrate/PGK buffer (columns 1,2,5-48) are dispensed into Greiner white solid bottom 1536-well assay plates; columns 3-4 receive only TEA buffer as 0x PGK controls. […] Kinase-Glo Plus reagent is added (2ul) and plates incubated for 10 minutes, before being transferred to a ViewLux high-throughput CCD imager (PerkinElmer) wherein single end-point measurements of luminescence are acquired using a clear filter. […]
% is set by controls: 0 for no effect and ±100 for the full control effect.

Structure (SMILES) | activity change, negative = inhibition
O=C(O)c1ccccc1[As](=O)(O)O | inactive: 5.03%
